Data from PMC2666729.
The exact form of at least one protein or probe is not confirmed. For some assays here: Negatives hold for the conditions tested. For some assays here: At least one verdict was read from the data and is not stated in words by the source.

Columns and labels:
[1] = system: P. aeruginosa topoisomerase I (PAT), type IB (Pseudomonas aeruginosa UCBPP-PA14); experiment: EMSA; settings: recombinant protein, label: 5'-32P on top strand
[2] = system: PAT Y292F (Pseudomonas aeruginosa UCBPP-PA14); experiment: EMSA; settings: recombinant protein, label: 5'-32P on top strand

“CCTAGGCTACACCTACTCTTTGTAAGAATTAAGCTTC (double strand) [37 bp no loops (perfect duplex)]”: no binding ([1]; no MgCl2, no discrete complex up to 712 fmol PAT, aggregates marked, EMSA: 50 fmol DNA in 20 ul, 50 mM Tris pH 8.0, 2.5 mM MgCl2 (omitted in Fig. 9B), 0.1 mM EDTA, 0.67 M NaCl, 8-32% glycerol (varies by lane), 1 h at 37 C).
“CCTAGGCTACACCTACTCTTTGTAAGAATTAAGCTTC / GAAGCTTAATTCAAACAAAGAGTTCGTGTAGCCTAGG [37 bp loops]”: binds ([1]; 2.5 mM MgCl2, more stable than perfect duplex, EMSA: 50 fmol DNA in 20 ul, 50 mM Tris pH 8.0, 2.5 mM MgCl2 (omitted in Fig. 9B), 0.1 mM EDTA, 0.67 M NaCl, 8-32% glycerol (varies by lane), 1 h at 37 C); binds ([2]; 2.5 mM MgCl2, 0.53-18.8 pmol protein).
“CGTGTCGATTCCGACGTCCCTTGCATTTATCAATTAT (double strand) [37 bp VacSeq]”: binds ([1]; 2.5 mM MgCl2, two complexes plus aggregates, MgCl2 has no effect on complex formation); binds [2].
